We go through 3 compounds from BindingDB's records for 22299578 (Università degli Studi di Firenze, 2013).

Amino acid sequences for entries named in this document (tags omitted). Residues count along the entry.
UniProt Q08IJ2, 1-221: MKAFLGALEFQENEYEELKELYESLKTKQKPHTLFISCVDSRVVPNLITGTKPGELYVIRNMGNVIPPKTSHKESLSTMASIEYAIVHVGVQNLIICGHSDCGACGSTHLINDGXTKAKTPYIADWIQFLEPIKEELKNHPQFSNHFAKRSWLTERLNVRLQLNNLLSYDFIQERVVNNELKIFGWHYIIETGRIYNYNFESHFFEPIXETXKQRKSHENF
UniProt J0J440, 1-247: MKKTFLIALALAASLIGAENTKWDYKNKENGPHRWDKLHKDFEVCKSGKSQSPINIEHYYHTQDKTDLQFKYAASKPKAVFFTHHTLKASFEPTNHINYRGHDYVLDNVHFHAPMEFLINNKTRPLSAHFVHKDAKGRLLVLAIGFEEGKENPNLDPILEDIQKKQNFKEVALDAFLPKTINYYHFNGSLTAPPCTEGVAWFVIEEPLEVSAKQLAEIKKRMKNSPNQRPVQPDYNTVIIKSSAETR

SMILES strings stand for the structures.

One assay has as its target Carbonic anhydrase (Helicobacter pylori, UniProt Q08IJ2). Nature of the assay: CA Inhibition Assay. Conditions: pH 7.5.
For another assay, the target named is Alpha-carbonic anhydrase (Helicobacter pylori, UniProt J0J440). As to the kind of experiment: CA Inhibition Assay. The note with it: pH 7.5.

Regarding `N#CO`, the Ki at Carbonic anhydrase turned out to be 370 µM; at Alpha-carbonic anhydrase, 600 µM.
Turning to `O=[As](O)(O)c1ccccc1`, the results for the inhibition constant Ki at Carbonic anhydrase and on Alpha-carbonic anhydrase were 92 µM and 440 µM, respectively.
In the case of `[O]=[V]([OH])([OH])[O][V](=[O])([OH])[OH]`, the Ki at Carbonic anhydrase turned out to be 180 µM; at Alpha-carbonic anhydrase, 270 µM.

As usually defined, the Ki is the dissociation constant of the complex between target and ligand, obtained from inhibition or displacement. Low readings indicate tighter binding, high ones weaker binding.
